System: frog
Assay: Agonist efficacy was evaluated as concentration that produces 10-m V depolarization in frog sartorius muscle; activity value ranges from 0.2-0.4
Conditions: Muscle tissue

Work on `CC(=O)C1=CCCC2CCC1N2` (stereo unspecified) yielded a Concentration of 0.4 µM.

— ChEMBL document CHEMBL1123150, “Synthetic and conformational studies on anatoxin-a: a potent acetylcholine agonist” (1985)
